Measured values from several laboratories, pooled; numbers as filed in NIAID ChemDB.

Common to all: growth or infection tests; agent: Hepatitis B virus; method: PCR; endpoint: EC50

a–b is a range or a potency band.

| smiles | changes | cell line | value |
|---|---|---|---|
| C#CC(C)(C)NC(=O)C(=O)c1c(C)c(C(=O)Nc2ccc(F)c(C#N)c2)n(C)c1C |  | HepG2.2.15 | <0.001 µM |
| CCOC(=O)C1=C(CN2CC(F)(F)[C@H]3[C@@H]2CCN3C[C@@H](F)C(C)(C)C(=O)O)NC(c2nc(C)cs2)=N[C@H]1c1cccc(F)c1Cl |  | HepG2.2.15 | 0.001 µM |
| C[C@H]1Cn2c(c(C(=O)NCc3ccccc3-n3cncn3)n(-c3ccc(OC4CC4)cc3)c2=O)CN1C(=O)c1ccc(Br)c(Cl)c1 |  | HepG2.117 | <0.1 µM |
| C#CC1(NC(=O)C(=O)c2c(C)c(C(=O)Nc3ccc(F)c(C(F)(F)F)c3)n(C)c2C)CC1(F)F |  | HepG2.2.15 | <0.001 µM |
| CCOC(=O)C1=C(CN2CC(F)(F)[C@H]3[C@@H]2CCN3CC[C@](C)(O)C(=O)O)NC(c2nccs2)=N[C@H]1c1ccc(F)c(F)c1F |  | HepG2.2.15 | 0.043 µM |
| C=CCNC(=O)C(=O)c1c(F)c(C(=O)Nc2ccc(F)c(C#N)c2)n(C)c1C |  | HepG2.2.15 | 0.001–0.0099 µM |
| C[C@@H](NC(=O)C(=O)N1C[C@H]2COc3c(c(Cl)n(C)c3C(=O)Nc3ccc(F)c(C(F)(F)F)c3)S(=O)(=O)N[C@H]2C1)C(F)(F)F |  | HepAD38 | <0.5 µM |
| O=C(c1ccc(Br)c(Cl)c1)N1CCS(=O)(=O)[C@@](F)(C(=O)NCc2ccccc2)C1 |  | HepG2.117 | 0.5–5 µM |
| CCOC(=O)C1=C(CN2CC(F)(F)[C@@H]3[C@H]2CON3C[C@@](C)(O)C(=O)O)NC(c2nccs2)=N[C@H]1c1cccc(F)c1C |  | HepG2.2.15 | 0.282 µM |
| CCS(=O)(=O)N1CCC2(NS(=O)(=O)c3cn(C)c(C(=O)Nc4ccc(F)c(F)c4)c3F)CC2C1 |  | HepAD38 cells | <0.1 µM |
| C=CCNC(=O)C(=O)c1c(C)c(C(=O)Nc2ccc(F)c(C(F)(F)F)c2)n(C)c1C |  | HepG2.2.15 | 0.001–0.00999 µM |
| O=C(c1ccc(Br)c(Cl)c1)N1CCS(=O)(=O)C(c2nnco2)C1 |  | HepG2.117 | 0.5–5 µM |
| Cc1c(C(=O)C(=O)NC(C)(C)c2cncnc2)c(C)n(C)c1C(=O)Nc1ccc(F)c(C(F)(F)F)c1 |  | HepG2.2.15 | 0.001–0.0099 µM |
| Cn1cc(S(=O)(=O)N[C@@H]2CCN(S(=O)(=O)/C=C/c3ccccc3)C2)c(F)c1C(=O)Nc1ccc(F)c(F)c1 |  | HepAD38 cells | 0.1–0.3 µM |
| O=C(c1ccc(Br)c(Cl)c1)N1CCS(=O)(=O)[C@](F)(c2ncc(Cc3ccccc3-c3ncccn3)s2)C1 |  | HepG2.117 | 0.5–5 µM |
| C[C@@H](NC(=O)c1c2n(c(=O)n1-c1ccc(-n3cccn3)cc1)CCN(C(=O)c1ccc(Br)c(Cl)c1)C2)c1ccccc1F |  | HepG2.117 | <0.1 µM |
| CNC(=O)C(=O)N1CC2CC2(NS(=O)(=O)c2cn(C)c(C(=O)Nc3cc(F)c(F)c(F)c3)c2F)C1 |  | HepAD38 cells | <0.1 µM |
| COC(=O)C1=C(CN2CC(F)(F)[C@@H]3[C@H]2CON3C[C@@H](OC)C(C)(C)C(=O)O)NC(c2nccs2)=N[C@H]1c1ccc(F)c(F)c1F |  | HepG2.2.15 | 0.011 µM |
| O=C(c1cccc(Cl)c1F)N1CCS(=O)(=O)[C@@H](c2cccs2)C1 |  | HepG2.2.15 | >5 µM |
| CCOC(=O)C1=C(CN2CC(F)(F)[C@@H]3[C@H]2CON3C[C@@H](O)[C@H](CC)C(=O)O)NC(c2nccs2)=N[C@H]1c1cccc(F)c1C |  | HepG2.2.15 | 0.086 µM |
| C#C[C@](CO)(NC(=O)C(=O)c1c(C)c(C(=O)Nc2ccc(F)c(C#N)c2)n(C)c1C)C1CC1 |  | HepG2.2.15 | 0.001–0.0099 µM |
| CCOC(=O)C1=C(CN2CC(F)(F)[C@@H]3[C@H]2CON3C[C@H](O)C(C)(C)C(=O)O)NC(c2nccs2)=N[C@H]1c1ccc(F)c(F)c1Cl |  | HepG2.2.15 | 0.013 µM |
| COc1cccc(CNC(=O)c2c3n(c(=O)n2-c2ccccc2)CCN(C(=O)c2ccc(Br)c(Cl)c2)C3)c1 |  | HepG2.117 | 0.1–0.5 µM |
| Cc1cc(NC(=O)c2c3c(cn2C)S(=O)(=O)N[C@H]2CN(C(=O)C(=O)N[C@H](C)C(F)(F)F)C[C@@]2(C)CO3)ccc1F |  | HepAD38 | <0.5 µM |
| CC(C)Oc1ccc(-n2c(C(=O)NCc3ccccc3)c3n(c2=O)CCN(C(=O)/C=C/c2ccc(Cl)c(Cl)c2)C3)cc1 |  | HepG2.117 | >5 µM |
| Cc1cc(NC(=O)c2c3c(cn2C)S(=O)(=O)N[C@H]2CN(C(=O)C(=O)N[C@H](C)C(F)(F)F)C[C@@]2(O)CO3)ccc1F |  | HepAD38 | <0.5 µM |
| COc1ccc(Cc2cnc([C@]3(F)CN(C(=O)c4ccc(Br)c(Cl)c4)CCS3(=O)=O)s2)c(OC)c1 |  | HepG2.117 | 0.5–5 µM |
| COC(=O)C1=C(CN2CC(F)(F)[C@@H]3[C@H]2CON3C[C@H](O)C(C)(C)C(=O)O)NC(c2nccs2)=N[C@H]1c1ccc(F)c(F)c1Cl |  | HepG2.2.15 | 0.042 µM |
| C=CCNC(=O)C(=O)c1cn(C)c(C(=O)Nc2ccc(F)c(C#N)c2)c1F |  | HepG2.2.15 | 0.1–0.999 µM |
| C[C@H](c1cnc([C@]2(F)CN(C(=O)c3ccc(Br)c(C#N)c3)CCS2(=O)=O)s1)c1ccccc1F |  | HepG2.117 | 0.5–5 µM |
| COc1ccc(-n2c(C(=O)NCc3ccc(OCC(=O)O)cc3)c3n(c2=O)CCN(C(=O)c2ccc(Br)c(Cl)c2)C3)cc1 |  | HepG2.117 | >5 µM |
| CCOC(=O)C1=C(CN2CC(F)(F)[C@H]3[C@@H]2CON3C[C@H](O)C(C)(C)C(=O)O)NC(c2nc(C)cs2)=N[C@H]1c1cccc(F)c1C |  | HepG2.2.15 | 0.0125 µM |
| O=C(c1ccc(Cl)cc1Cl)N1CCS(=O)(=O)[C@@H](c2cccs2)C1 |  | HepG2.2.15 | 0.5–5 µM |
| C#C[C@](CO)(NC(=O)C(=O)c1c(C)c(C(=O)Nc2ccc(F)c(C(F)(F)F)c2)n(C)c1C)C(F)(F)F |  | HepG2.2.15 | 0.01–0.099 µM |
| Cc1cc(NC(=O)c2c3c(cn2C)S(=O)(=O)N[C@H]2CN(C(=O)C(=O)N[C@H](C)C(F)(F)F)C[C@H]2CO3)ccc1F | I105T | HepG2 | 0.00322 µM |
| CCNC(=O)C(=O)NC1CCN(S(=O)(=O)c2cn(C)c(C(=O)Nc3cc(F)c(F)c(F)c3)c2F)CC1 |  | HepAD38 cells | 0.1–0.3 µM |
| C[C@H]1CS(=O)(=O)[C@H](c2cccs2)CN1C(=O)c1ccc(Br)c(Cl)c1 |  | HepG2.2.15 | 0.1–0.5 µM |
| CC[C@@H](NC(=O)c1c2n(c(=O)n1-c1ccc(OC)cc1)CCN(C(=O)c1ccc(Br)c(Cl)c1)C2)c1ccccc1 |  | HepG2.117 | 0.1–0.5 µM |
| Cc1cc(NC(=O)c2c3c(cn2C)S(=O)(=O)N[C@H]2CN(C(=O)C(=O)NCC(C)C)C[C@H]2CO3)ccc1F |  | HepAD38 | <0.5 µM |
| COc1ccc(-n2c(C(=O)NCc3ccccc3C#N)c3n(c2=O)CCN(C(=O)c2ccc(Br)c(Cl)c2)C3)cc1 |  | HepG2.117 | 0.1–0.5 µM |
| Cc1cc(NC(=O)c2c3c(cn2C)S(=O)(=O)N[C@H]2CN(C(=O)C(N)=O)C[C@H]2CS3)ccc1F |  | HepAD38 | <0.5 µM |

A second listing of 3 rows from above:

| smiles | changes | cell line | value |
|---|---|---|---|
| C#C[C@](CO)(NC(=O)C(=O)c1c(C)c(C(=O)Nc2ccc(F)c(C#N)c2)n(C)c1C)C1CC1 |  | HepG2.2.15 | 0.001–0.0099 µM |
| C=CCNC(=O)C(=O)c1c(C)c(C(=O)Nc2ccc(F)c(C(F)(F)F)c2)n(C)c1C |  | HepG2.2.15 | 0.001–0.00999 µM |
| O=C(c1cccc(Cl)c1F)N1CCS(=O)(=O)[C@@H](c2cccs2)C1 |  | HepG2.2.15 | >5 µM |

ECn: concentration that inhibits the pathogen or its effect by n%. Rows are shuffled and stem from different studies. Blank or dashed fields: not listed here.